Data: publication PMC9926490, “Structural Basis for Cyclosporin Isoform-Specific Inhibition of Cyclophilins from Toxoplasma gondii” (ACS Infectious Diseases, 2023)

System: C[C@H](NC(=O)CCC(=O)O)C(=O)N[C@@H](C)C(=O)N1CCC[C@H]1C(=O)N[C@@H](Cc1ccccc1)C(=O)Nc1ccc([N+](=O)[O-])cc1
Test: purified protein, by the assay type
Settings: other: substrate AAPF, 0 °C, pH 8.0

Work on “TgCyp18.4 H111W (Toxoplasma gondii VEG; H111W)” yielded a Km of 719 ± 132 µM, a kcat of 8.31 s⁻¹ and a kcat/Km of 12000 M⁻¹ s⁻¹.
